From patent publication US20200270588A1, “GLUCOSYL TRANSFERASE POLYPEPTIDES AND METHODS OF USE” (Syngenta Participations AG, priority 2017, published 2020)

Test: ELISA of bx protein expressed in E. coli extracts

B1: A432T: bx9 SEQ ID NO:1 mutant (protein)
chain: MASSRTGAGAGGRVVVFPFPFQGHFNPVMRLARALHARGLAITVFHSGALDPADYPADYRFVPVTVEADPKLLASEDIAAIVTTLNASCDAPFRARLSALLAAEGRDSVRCVFTDVSWNAVLTASSDLGVPALGMMTASAASLRDYMAYRTLIDKGYLPVKEERKEDPVPELPPYLVKDLLRVDTSDLEEFAELLARTVTAARRASGLIFNTFPLIETDTLAEIHKALSVPVFAVAPLNKLVPTATASLHGVVQADRGCLQWLDTQQPGSVLYVSFGSMAAMDPHEFVELAWGLADSKRPFVWVVRPNLIRGFESGALPDGVEDEVRGRGIVVAWAPQEEVLAHPAVGGFLTHNGWNSTVEAISEGVPMVCCPRHGDQFGNMRYVCDVWKVGTELVGEQLERGQVKAAIDRLFGTKEGEEIKERMKEFKIATAKGIGIGVDVDETASPRTDLTDLVDLIKSF
modifications: Zea mays
expression level relative to w/t bx9 protein: ~40%
